Pooled drug test results. Numbers come from NIAID ChemDB, via PubChem.

Common to all: whole-cell or culture tests; species: HIV-1; read by: cytopathic effect / XTT; measure: fold resistance

Neighbouring rows are from separate reports. Fold resistance: result on the changed form divided by that on wild type.

structure | strain | changes | cell line | result
C/C=C/CSc1cc(NC(=S)c2ccsc2C)ccc1Cl | Thiazolobenzimidazole-resistant (RT V108I) | RT-V108I | CEM + CEM-SS | 4.5
Fc1cccc(F)c1C1SCc2nc3ccccc3n21 | IIIB | RT-V106N | CEM | 5.49
Cc1ccnc2c1NC(=O)c1cccnc1N2C1CC1 | NL4-3 | RT-V106A | CEM + CEM-SS | >100
Fc1cccc(F)c1[C@H]1SCc2nc3ccccc3n21 | IIIB | RT-L100I | CEM | 5.03
c1ccc2c(c1)sc1nccn12 | IIIB(TIBO-R(I)) | RT-A98G V108I | CEM + CEM-SS | >200
CCc1c(Sc2ccccn2)n(COCc2ccccc2)c(=O)[nH]c1=O | 4xAZT(RT-D67N K70R T215Y K219Q) | RT-D67N K70R T215Y K219Q | CEM + CEM-SS | 0.444
Cc1ccnc2c1NC(=O)c1cccnc1N2C1CC1 | NL4-3 (RT M184V) | RT-M184V | CEM + CEM-SS | 5
Nc1nc(NC2CC2)c2ncn([C@H]3C=C[C@@H](CO)C3)c2n1 | Site-directed mutant | RT-K65R | MT-2 | 2.9
CCc1c(C(=O)c2cc(C)cc(C)c2)n(CC2CC=CC2)c(=O)[nH]c1=O | CALO(RT-T139I) | RT-T139I | CEM + CEM-SS | 5
CCc1c(Sc2ccccn2)n(COCc2ccccc2)c(=O)[nH]c1=O | IIIB HEPT-resistant (IV) | RT-P236L | CEM + CEM-SS | 62
Cc1cn([C@H]2C[C@H](N=[N+]=[N-])[C@@H](CO)O2)c(=O)[nH]c1=O | NL4-3 | RT-V106A | CEM + CEM-SS | 1.33
Cc1cn([C@@H]2O[C@H](CO[Si](C)(C)C(C)(C)C)C3(OS(=O)(=O)C=C3N)[C@H]2O[Si](C)(C)C(C)(C)C)c(=O)n(C)c1=O | IIIB | RT-V106N | CEM | 117
Cc1occc1C(=S)Nc1ccc(Cl)c(/C=N/OC(C)(C)C)c1 | 3TC-RS (RT-M184I) | RT-M184I | CEM + CEM-SS | 1
Cc1cn([C@H]2C[C@H](N=[N+]=[N-])[C@@H](CO)O2)c(=O)[nH]c1=O | IIIB(THZ-R(I)) | RT-V108I | CEM + CEM-SS | 2.5
Cc1cn([C@H]2C=C[C@@H](CO)O2)c(=O)[nH]c1=O | Site-directed mutant | RT-K65R Y115F | MT-2 | 1.8
CCCc1cc(=O)oc2c3c(c4c(c12)OC(C)(C)C=C4)O[C@H](C)[C@@H](C)[C@@H]3O | IIIB(TIBO-R(I)) | RT-A98G V108I | CEM + CEM-SS | 17.4
Cc1cn([C@H]2C[C@H](N=[N+]=[N-])[C@@H](CO)O2)c(=O)[nH]c1=O | IIIB | RT-Y181C | CEM + CEM-SS | 0.6

Repeating the first 2 entries:

{"structure": "C/C=C/CSc1cc(NC(=S)c2ccsc2C)ccc1Cl", "strain": "Thiazolobenzimidazole-resistant (RT V108I)", "changes": "RT-V108I", "cell line": "CEM + CEM-SS", "result": "4.5"}
{"structure": "Fc1cccc(F)c1C1SCc2nc3ccccc3n21", "strain": "IIIB", "changes": "RT-V106N", "cell line": "CEM", "result": "5.49"}